Measured values from several laboratories, pooled; numbers as filed in NIAID ChemDB.

All rows: growth or infection tests; organism: HIV-1; cell line: PBMC; endpoint: EC50

Conditions beyond the fields shown may differ between rows.

compound	strain or isolate	changes	method	conditions	value
CCCc1cc(=O)oc2c3c(c4c(c12)OC(C)(C)C=C4)O[C@@H](C)[C@H](C)[C@@H]3O	ROJO(SI)	-	RT activity	-	1.5 µM
COc1ccc(S(=O)(=O)N(CC(C)C)C[C@@H](O)[C@H](Cc2ccccc2)NC(=O)O[C@H]2CO[C@H]3OCC[C@H]32)cc1	LAI Laboratory isolate	-	p24	-	0.0003 µM
Cc1cn([C@H]2C[C@H](N=[N+]=[N-])[C@@H](CO)O2)c(=O)[nH]c1=O	MOKW	-	p24	-	0.001 µM
Cc1ccnc2c1NC(=O)c1cccnc1N2C1CC1	CLADE E	-	cytopathic effect / XTT	clinical isolate	0.007 µM
CCCc1cc(=O)oc2c3c(c4c(c12)OC(C)(C)C=C4)O[C@H](C)[C@@H](C)[C@@H]3O	TEKI(SI)	-	RT activity	-	0.3 µM
O=c1[nH]cnc2c1ncn2[C@H]1CC[C@@H](CO)O1	IIIB	-	p24	-	1.6 µM
CC(C)CN(C[C@@H](O)[C@H](Cc1ccccc1)NC(=O)O[C@@H]1[C@@H]2CCCO[C@@H]2O[C@H]1C)S(=O)(=O)c1ccc(N)cc1	TM	PR-L10I K14R R41K M46I I54V L63P A71V V82A L90M I93L	p24	-	0.24 µM
C[C@H](NC(=O)[C@H](CCCN=C(N)N)NC(=O)c1ccc(CNCc2ccccn2)cc1)c1cccc2ccccc12	YU-10 X4 clinical isolate	-	p24	-	0.152 µM
CC(C)(C)NC(=O)[C@@H]1C[C@@H]2CCCC[C@@H]2CN1C[C@@H](O)[C@H](Cc1ccccc1)NC(=O)[C@H](CC(N)=O)NC(=O)c1ccc2ccccc2n1	Clinical isolate	PR-L10I V11I T12E I15V L19I R41K M46L L63 A71T V82A L90M	p24	-	0.033 µM
COC(=O)[C@H](C)NP(=O)(OC[C@@H]1C=C[C@H](n2cc(C)c(=O)[nH]c2=O)O1)Oc1ccc(Br)cc1	RTMDR	RT-M41L T215Y	p24	-	>0.001 µM
CCCCN1C(=O)C(CC2CCCCC2)NC(=O)C12CCN(Cc1ccc3c(c1)OCCO3)CC2	MOKW	-	p24	-	0.04 µM
Cc1ccc(NC(=S)NC[C@H](C)c2ccccc2)nc1	NNRTI-resistant (RT Y181C) A17	RT-Y181C	p24	-	1.08 µM
O=c1[nH]cnc2c1ncn2[C@H]1CC[C@@H](CO)O1	TM	MDR	p24	-	2.5 µM
CC(C)=CCN1Cc2cc(Cl)cc3[nH]c(=S)n(c23)C[C@@H]1C	BCF01	RT-A98G K103R Y181C	-	-	>6.25 µM
COc1cc(C[C@H](C)[C@H](C)Cc2ccc(O)c(O)c2)ccc1O	MN	-	p24	-	1.6 µg/mL
Cc1cccc(NC(=S)NC[C@H](C)c2ccccc2)n1	NNRTI-resistant (RT Y181C K103N) A17V	RT-Y181C K103N	p24	-	1.19 µM
Nc1nc(=O)n([C@@H]2CS[C@H](CO)O2)cc1F	H112-2 (AZT-susceptible)	-	RT activity	-	0.006 µM
Cc1ccnc2c1NC(=O)c1cccnc1N2C1CC1	CLADE E	-	RT activity	-	0.007 µM
c1cc(CN2CCCNCCNCCCNCC2)ccc1CN1CCCNCCNCCCNCC1	MOKW	-	p24	-	>1 µM
Cc1cn([C@H]2C[C@H](N=[N+]=[N-])[C@@H](CO)O2)c(=O)[nH]c1=O	BI-RG587-resistant	-	RT activity	-	0.004 µM
O=C1N(Cc2ccc(CO)cc2)[C@H](Cc2ccccc2)[C@H](O)[C@@H](O)[C@@H](Cc2ccccc2)N1Cc1ccc(CO)cc1	Clinical isolate D3	-	p24	-	0.05 µM
COC(=O)[C@H](C)NP(=O)(OC[C@@H]1C=C[C@H](n2cc(C)c(=O)[nH]c2=O)O1)Oc1ccc(Br)cc1	7295-1 NRTI resistant recombinant	RT-D67N T69N K70R M184V T215F K219Q	RT activity	-	0.0002 µM
C#C[C@]1(CO)O[C@@H](n2cnc3c(N)nc(F)nc32)C[C@@H]1O	Clinical isolate	M184V	single cycle / fluorescence	-	0.00107 µM
Nc1ccn([C@@H]2CS[C@H](CO)O2)c(=O)n1	LAI Laboratory isolate	-	p24	-	0.021 µM
C[C@@H](CNC(=S)Nc1ccc(Br)cn1)c1ccccc1	NNRTI-resistant (RT Y181C K103N) A17V	RT-Y181C K103N	p24	-	1.08 µM
Cc1cccc(C)c1OCC(=O)N[C@@H](Cc1ccccc1)[C@@H](O)C[C@H](Cc1ccccc1)NC(=O)[C@H](C(C)C)N1CCCNC1=O	92UG037	-	p24 / luminescence	-	0.12 µM
Cc1c(O)cccc1C(=O)N[C@@H](CSc1ccccc1)[C@H](O)CN1C[C@H]2CCCC[C@H]2C[C@H]1C(=O)NC(C)(C)C	Clinical isolate	PR-L10I K43T M46L I54L L63P A71T V82A L90M Q92K	p24	-	0.41 µM
CCO/N=C(\c1ccc(Br)cc1)C1CCN(C2(C)CCN(C(=O)c3c(C)cc[n+]([O-])c3C)CC2)CC1	ADA-M R5 CLADE B	-	p24	-	0.003 µM
c1cc(CN2CCCNCCNCCCNCC2)ccc1CN1CCCNCCNCCCNCC1	SF162 R5	-	antigen	-	>25 µg/mL
O=c1[nH]cnc2c1ncn2[C@H]1CC[C@@H](CO)O1	BCF08	RT-A98G Y181C	-	-	0.2 µM
Cc1c(O)cccc1C(=O)N[C@@H](CSc1ccccc1)[C@H](O)CN1C[C@H]2CCCC[C@H]2C[C@H]1C(=O)NC(C)(C)C	JSL	MDR	p24	-	>1 µM
Cc1cn([C@H]2C[C@H](N=[N+]=[N-])[C@@H](CO)O2)c(=O)[nH]c1=O	CLADE A	-	cytopathic effect / XTT	-	0.01 µM
Cc1cccc(NC(=S)N[C@H](C)c2cccc3ccccc23)n1	IIIB	-	p24	-	0.004 µM
C[C@@H]1O[C@H]2OCCC[C@H]2[C@H]1OC(=O)N[C@@H](Cc1ccccc1)[C@H](O)CN1C[C@H]2CCCC[C@H]2C[C@H]1C(=O)NC(C)(C)C	TM	PR-L10I K14R R41K M46I I54V L63P A71V V82A L90M I93L	p24	-	>1 µM
Cc1cn([C@H]2C[C@H](N=[N+]=[N-])[C@@H](CO)O2)c(=O)[nH]c1=O	CLADE C	-	RT activity	-	0.007 µM
CC(C)CN(C[C@@H](O)[C@H](Cc1cc(F)cc(F)c1)NC(=O)O[C@H]1CCO[C@H]2OCC[C@H]21)S(=O)(=O)c1ccc2nc(NC(C)C)sc2c1	BaL	-	p24 / luminescence	-	0.0002 µM
CC(C)(C)NC(=O)[C@@H]1CN(Cc2cccnc2)CCN1C[C@@H](O)C[C@@H](Cc1ccccc1)C(=O)N[C@H]1c2ccccc2C[C@H]1O	4755-5 NRTI resistant recombinant	RT-M41L E44D D67N T69D Y118I M184V L210W T215Y	p24	-	0.0094 µM
CC(C)CN(C[C@@H](O)[C@H](Cc1ccccc1)NC(=O)O[C@H]1CCOC1)S(=O)(=O)c1ccc(N)cc1	PR-L63P ERS104pre	-	p24	-	0.02 µM
C[C@H](CNC(=S)Nc1ccccn1)C1CCCCC1	IIIB	-	p24	-	>1 µM
Cc1cn([C@H]2C[C@H](N=[N+]=[N-])[C@@H](CO)O2)c(=O)[nH]c1=O	S159-2 Clinical isolate ZDV-resistant	RT-M41L K103N T215Y	p24	-	0.7 µM
C[C@@H](NC(=S)Nc1ccc(Br)cn1)c1cccc2ccccc12	NNRTI-resistant (RT Y181C) A17	RT-Y181C	p24	-	0.105 µM
Cc1cn([C@H]2C[C@H](N=[N+]=[N-])[C@@H](CO)O2)c(=O)[nH]c1=O	R041290	-	p24	-	0.6 µM
Cc1ccc(NC(=S)N[C@H](C)c2cccc3ccccc23)nc1	NNRTI-resistant (RT Y181C) A17	RT-Y181C	p24	-	0.066 µM
Cc1cn([C@H]2C[C@H](N=[N+]=[N-])[C@@H](CO)O2)c(=O)[nH]c1=O	BCF11	RT-A98G K103R	-	-	0.01 µM

Repeating the first 4 entries:

compound,strain or isolate,changes,method,conditions,value
CCCc1cc(=O)oc2c3c(c4c(c12)OC(C)(C)C=C4)O[C@@H](C)[C@H](C)[C@@H]3O,ROJO(SI),-,RT activity,-,1.5 µM
COc1ccc(S(=O)(=O)N(CC(C)C)C[C@@H](O)[C@H](Cc2ccccc2)NC(=O)O[C@H]2CO[C@H]3OCC[C@H]32)cc1,LAI Laboratory isolate,-,p24,-,0.0003 µM
Cc1cn([C@H]2C[C@H](N=[N+]=[N-])[C@@H](CO)O2)c(=O)[nH]c1=O,MOKW,-,p24,-,0.001 µM
Cc1ccnc2c1NC(=O)c1cccnc1N2C1CC1,CLADE E,-,cytopathic effect / XTT,clinical isolate,0.007 µM

An empty or dashed field is not shown. ECn: concentration that inhibits the pathogen or its effect by n%.